Laboratory results from PubChem BioAssay AID2170 (The Scripps Research Institute Molecular Screening Center, 2009).
This is a selection; strong and weak results do not stand in their true shares. The source made the active and inactive calls.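 How the source made its calls: active means mean inhibition over replicate wells above the hit cutoff set for the earlier primary screen (cut at about 29% in these data); inactive means the rest.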

test system: M18 aspartyl aminopeptidase (Plasmodium falciparum 3D7); experiment: inhibition of P. falciparum M18 aminopeptidase – biochemical, QFRET, recombinant enzyme, triplicate, confirmation (AID 2170); settings: recombinant PfM18AAP, H-Glu-NHMec fluorogenic cleavage; at 7.35 µM; active compounds read high;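 further: 0% = median of test compound wells and 100% = 2 mM ZnCl2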
Method in brief: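 System – recombinant P. falciparum M18 aspartyl aminopeptidase · Reagent – H-Glu-NHMec fluorogenic substrate · Dosing – 7.35 µM single dose · Incubation – Enzyme–compound pre-incubation 30 min, substrate reaction 90 min, both 25 °C · Technique – fluorescence, excitation 340 nm, emission 450 nm, read at 0 and 90 min · Controls – ZnCl2 inhibitor control · Repeats – n of 3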

| SMILES | inhibition |
| --- | --- |
| CC(C)=N/N=C(\N)N[N+](=O)[O-] | inactive: -42.2% |
